US8741576B2, “Heteroclitic analogs and related methods” (Epimunne Inc., priority 1999, dated 2014)
Like-named read-outs stand apart in the source and are kept apart here.

Tests used:
HLA-A2.1 (A*0201) = HLA-A2.1 (A*0201) (Homo sapiens, UniProt P04439, D140Y/D185E/D98H/E176V/E277Q/G131W/G231S/I119V/I121R/I166T/I218V/L300P/L318F/N151K/N90K/P208A/P217A/Q86G/Q94H/R138H/R169H/T345S); assay: HLA-A2.1 peptide binding, competition with radiolabeled HBV Core.18 standard peptide; conditions: for IC50: read-out: A*0201 binding (IC50)
[1] = test system: MAGE2.157-, HBV Pol.455- and HIV Pol.476-specific CTL lines; assay: IFNγ release (in situ capture ELISA) from murine CTL lines with peptide-pulsed .221A2.1 APC; format: cell-based, HLA-A2.1/K^bxs transgenic mice
HLA-A2.1 (human) = HLA-A2.1 (human) (UniProt P04439)

| Compound | HLA-A2.1 binding affinity compared to wildtype peptide (HLA-A2.1 (A*0201)) | IC50 (HLA-A2.1 (A*0201); purified HLA-A2.1) | heteroclitic activity in analog screening [1] | IC50 (HLA-A2.1 (human)) | IC50 (HLA-A2.1 (A*0201)) |
| --- | --- | --- | --- | --- | --- |
| CC[C@H](C)[C@H](NC(=O)[C@H](CCC(=O)O)NC(=O)[C@H](C)NC(=O)[C@@H](NC(=O)[C@@H](N)CCCCN)C(C)C)C(=O)N[C@H](C(=O)N[C@@H](Cc1c[nH]cn1)C(=O)N[C@@H](Cc1ccccc1)C(=O)N[C@@H](CC(C)C)C(=O)O)C(C)C [MAGE3.112 I5] | little or no change in HLA-A2.1 binding capacity | 66 nM | – | – | – |
| CC[C@H](C)[C@H](N)C(=O)N[C@@H](CC(C)C)C(=O)N[C@@H](Cc1c[nH]cn1)C(=O)N[C@@H](CCC(=O)O)C(=O)N1CCC[C@H]1C(=O)N[C@H](C(=O)N[C@@H](Cc1c[nH]cn1)C(=O)NCC(=O)N[C@H](C(=O)O)C(C)C)C(C)C [HIV Pol.476 H3] | four-fold or higher affinity than wildtype peptide | 78 nM | heteroclitic activity | – | – |
| CC[C@H](C)[C@H](NC(=O)CNC(=O)[C@H](Cc1ccccc1)NC(=O)[C@H](Cc1ccccc1)NC(=O)[C@H](CC(C)C)NC(=O)[C@H](CCC(N)=O)NC(=O)[C@H](CC(C)C)NC(=O)[C@@H](N)Cc1ccc(O)cc1)C(=O)N[C@@H](CCC(=O)O)C(=O)N[C@H](C(=O)O)C(C)C [MAGE2.157 F5] | lower affinity | 212 nM | – | – | – |
| HIV Pol.476 L3 (peptide) | – | – | – | 63 nM | – |
| CC[C@H](C)[C@H](NC(=O)CNC(=O)[C@H](Cc1ccccc1)NC(=O)[C@@H](NC(=O)[C@H](CC(C)C)NC(=O)[C@H](CCC(N)=O)NC(=O)[C@H](CC(C)C)NC(=O)[C@@H](N)Cc1ccc(O)cc1)[C@@H](C)CC)C(=O)N[C@@H](CCC(=O)O)C(=O)N[C@H](C(=O)O)C(C)C [MAGE2.157 I5] | lower affinity | 476 nM | – | – | – |
| CC[C@H](C)[C@H](N)C(=O)N[C@@H](CCSC)C(=O)N[C@H](C(=O)NCC(=O)N[C@@H](Cc1c[nH]cn1)C(=O)N[C@@H](CC(C)C)C(=O)N[C@H](C(=O)NCC(=O)N[C@H](C(=O)O)C(C)C)C(C)C)[C@@H](C)CC [CEA.691 H5] | little or no change in HLA-A2.1 binding capacity | – | – | – | – |
| CC(C)C[C@H](NC(=O)[C@H](CCCNC(=N)N)NC(=O)[C@@H]1CCCN1C(=O)[C@@H](NC(=O)[C@H](Cc1ccc(O)cc1)NC(=O)[C@H](CCCNC(=N)N)NC(=O)[C@H](CO)NC(=O)[C@H](CC(C)C)NC(=O)CN)C(C)C)C(=O)O [HBV Pol.455 P7] | little or no change in HLA-A2.1 binding capacity | – | heteroclitic | – | 267 nM |
| CC[C@H](C)[C@H](N)C(=O)N[C@@H](CC(C)C)C(=O)N[C@@H](CC(C)C)C(=O)N[C@@H](CCC(=O)O)C(=O)N1CCC[C@H]1C(=O)N[C@H](C(=O)N[C@@H](Cc1c[nH]cn1)C(=O)NCC(=O)N[C@H](C(=O)O)C(C)C)C(C)C [HIV Pol.476 L3] | – | – | heteroclitic activity | – | – |
| CC[C@H](C)[C@H](N)C(=O)N[C@@H](CCSC)C(=O)N[C@@H](CCSC)C(=O)NCC(=O)N[C@H](C(=O)N[C@@H](CC(C)C)C(=O)N[C@H](C(=O)NCC(=O)N[C@H](C(=O)O)C(C)C)C(C)C)C(C)C [CEA.691 M3] | little or no change in HLA-A2.1 binding capacity | 27 nM | – | – | – |
